In assay [1] the target is T1, N-peptide N36 ([…] of HIV-1 HXB2 gp41 NHR) (HIV-1 HXB2).
T1 construct: source: synthetic peptide
The assay can be described thus: native gel or EMSA. The following applies: both partners purified. For orientation: A gel shift assay detects complexes by their altered migration in electrophoresis.

Assay [2] has as its target T1, N-peptide N36 ([…] of HIV-1 HXB2 gp41 …). In words: ELISA. The following applies: both partners purified.

B1: C34-FAM (C-peptide C34, […] of HIV-1 HXB2 gp41 CHR, FAM-labelled) (peptide)
peptide: not shown
modifications: FAM (position not given)
notes: source: synthetic peptide
Regarding B1, the binding result in assay [1] was “binds”.

B2: C34-biotin (C-peptide C34, […] of HIV-1 HXB2 gp41 CHR, biotin-labelled) (peptide)
peptide: not shown
modifications: biotin (position not given)
notes: source: synthetic peptide
With B2, the binding result in assay [2] is “binds”.

Values taken from publication PMC3531269, “A bivalent recombinant protein inactivates HIV-1 by targeting the gp41 prehairpin fusion intermediate induced by CD4 D1D2 domains” (Retrovirology, 2012).
